PubChem BioAssay AID1259414 – Drosophila RNAi Screening Center, 2018
The screen tested about 24,000 reagents; below is an unselected part of those with a known target gene and a result. Of all reagents, about 1,210 (5%) were called active. 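Inactive calls also include excluded dsRNAs with several or no targets, genes unexpressed in JW18, and well A1, regardless of score.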 Entries without a mark were called inactive. The numbers tell different reagents against one gene apart. A plus sign joins genes that one reagent is predicted to hit.

- Aim: 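Fly genes that alter Wolbachia amount inside host cells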 (primary screen)
- Cell system: Drosophila JW18 cells infected with Wolbachia
- Reagents: long dsRNA against Drosophila genes, 0.25 µg dsRNA per well of a 384-well plate
- Time to read-out: 5 days
- Conditions: cells persistently infected with Wolbachia before knock-down; no added drug
- Read-out: 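Automated imaging of bacterial rRNA staining divided by host cell count, reported as plate-normalised robust z-score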
- Direction: Wolbachia per cell robust z: higher = more Wolbachia per host cell than the plate typical
- Hit rule: 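Active if absolute robust z reaches 1.5 in two or more of three replicates, leaving out multi- or no-target dsRNAs, genes unexpressed in JW18 and A1 wells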

target gene	reagent	Wolbachia per cell robust z, rep 1	Wolbachia per cell robust z, rep 2	Wolbachia per cell robust z, rep 3
Inx6 (GeneID 31645)	1	-0.508	-1.83	-1.52
Inx6 (GeneID 31645)	2	0.195	-1.52	0.563
CG2218 (GeneID 43611)	1	-0.858	-0.734	0.713
CG2218 (GeneID 43611)	2	2.32	0.0647	0.932
CG3566 (GeneID 31562)	1	-5.31	-0.233	-1.01
CG3566 (GeneID 31562)	2	0.253	0.175	-2.48
Pten (GeneID 43991)	1	0.333	-1.19	-1.27
Pten (GeneID 43991)	2	0.507	-0.627	0.0258
CG13339 (GeneID 36528)	1	-4.34	-1.36	0.516
MICAL-like (GeneID 39475)	1	-0.241	1.32	0.28
Mal-B2 (GeneID 34598)	1	0.61	0.137	0.338
CG13912 (GeneID 38120)	1	0.426	0.651	0.913
CG9899 (GeneID 37676)	1	-1.8	0.241	-0.249
asRNA:Eig63F-2 (GeneID 4379905)	1	1.3	0.244	-0.207
CG9101 (GeneID 32452)	1	0.671	-2.38	0.0938
CG9101 (GeneID 32452)	2	0.184	-0.335	0.0214
CG13743 (GeneID 35911)	1	-1.95	-0.746	-0.208
CG13743 (GeneID 35911)	2	0.375	0.908	0.0664
CG13743 (GeneID 35911)	3	1.01	-0.234	-0.566
CG15570 (GeneID 31366)	1	0.828	0.946	-1.19
CG8635 (GeneID 35850)	1	1.34	-1.5	0.565
CG8635 (GeneID 35850)	2	0.492	-0.477	0.959
CG44253 + Fatp2	1	-0.224 (active)	-1.63	-6.93
CG44253 + Fatp2	2	-0.321	-0.334	-0.582
CG13465 (GeneID 50282)	1	-1.03	-0.0644	-0.332
CG9302 (GeneID 34750)	1	0.764	0.561	1.04
Scm (GeneID 41168)	1	-1.06	-0.327	-4.49
CG3942 (GeneID 41489)	1	-0.125	0.912	-4.01
CG3942 (GeneID 41489)	2	-0.361	-1.93	-0.525
CG30100 + CG42372	1	-0.302	1.34	-10.8
CG30100 + CG42372	2	0.197	-0.535	0.117
CG15386 + CG42371	1	0.113	1.34	0.389
CG12464 (GeneID 36516)	1	-2.49	0.0719	-1.16
CG31528 (GeneID 318785)	1	0.187	-0.643	-0.405
galla-2 (GeneID 39221)	1	-0.141	0.311	1.53
galla-2 (GeneID 39221)	2	-1.77 (active)	-2.24	-1.6
Afti (GeneID 41744)	1	1.43	0.444	-0.134
Afti (GeneID 41744)	2	-0.479	-0.521	0.396
Alp9 (GeneID 38633)	1	-0.802	0.199	0.57
Alp9 (GeneID 38633)	2	1.23	1.05	0.894

3 successive entries already listed, quoted:
target gene	reagent	Wolbachia per cell robust z, rep 1	Wolbachia per cell robust z, rep 2	Wolbachia per cell robust z, rep 3
CG13465 (GeneID 50282)	1	-1.03	-0.0644	-0.332
CG9302 (GeneID 34750)	1	0.764	0.561	1.04
Scm (GeneID 41168)	1	-1.06	-0.327	-4.49

Continued.
target gene	reagent	Wolbachia per cell robust z, rep 1	Wolbachia per cell robust z, rep 2	Wolbachia per cell robust z, rep 3
CG11839 (GeneID 43006)	1	0.826	0.432	-0.108
Naa40 (GeneID 43500)	1	-4.18	0.541	0.411
CG8298 (GeneID 36282)	1	0.404	-1.18	-0.751
spag4 (GeneID 34581)	1	0.404	-1.76	0.197
Ravus (GeneID 41626)	1	0.752	0.849	-1.46
Spn42De (GeneID 35602)	1	-0.649	-1.06	-0.414
Spn42De (GeneID 35602)	2	0.76	-0.348	0.666
CG10435 (GeneID 40948)	1	-0.283	0.683	-0.0698
CG10435 (GeneID 40948)	2	-1.28	-0.775	-1.56
Hydr2 (GeneID 33532)	1	0.241	-1.45	0.354
Pig1 (GeneID 31303)	1	-0.104	-0.609	0.273
CG18735 (GeneID 59137)	1	-1.83	0.543	-5.08
CG18735 (GeneID 59137)	2	-0.0023	-1.12	-1.66
CG5493 + CG5327	1	-0.495	-0.823	-2.19
Start1 (GeneID 37927)	1	-5.02 (active)	0.0974	-2.19
Start1 (GeneID 37927)	2	-1.54	1.57	0.628
CG7556 (GeneID 32902)	1	2.13	-1.32	1.28
CG7556 (GeneID 32902)	2	1.14	0.678	1.66
CG13300 (GeneID 38730)	1	0.577	0.522	1.22
CG13300 (GeneID 38730)	2	-1.09	1.17	-0.287
Vps13D (GeneID 39448)	1	-0.14	-0.838	-0.983
Vps13D (GeneID 39448)	2	0.322	0.109	0.657
CG2186 (GeneID 32017)	1	0.455	0.0873	0.0515
CG2186 (GeneID 32017)	2	0.804	0.709	-0.153
CG15914 (GeneID 32542)	1	1.64	-0.536	-3.45
RpL5 (GeneID 3355124)	1	2.04 (active)	2.28	2.57
RpL5 (GeneID 3355124)	2	-0.307	0.185	1.62
alpha-Est2 (GeneID 40908)	1	-0.332	0.67	1.04
